Data as given in PubChem BioAssay AID624099 (ICCB-Longwood, 2012)
Assay: 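Knock-downs relieving repression by E2 of an HPV18 LCR luciferase reporter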 (primary screen). Cells: human C33A cervical carcinoma cells (HPV-negative) stably expressing BPV1 E2 and an HPV18 LCR luciferase reporter. Reagent: siRNA pool against human genes, 40 nM. Timing: 72 h. Measured: 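HPV18 LCR reporter light per well, converted to plate-wise z-scores that exclude control wells, and averaged over triplicate plates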. Reading the numbers: mean z-score and z-score: higher = stronger reporter signal, weaker E2 silencing. Call rule: 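Hit if mean z-score reaches 2 and two or more of three replicate z-scores also reach 2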.
The whole screen tested about 21,000 reagents; below is a part drawn at random. In the full data, 497 (2.4%) got an active call. 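Higher z means weaker E2 silencing; only reporter increases were scored, and knock-downs that hurt cell survival may mask genuine repressor factors.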 Unmarked entries are inactive. The numbers tell different reagents against one gene apart.

| target gene | reagent | mean z-score | z-score, replicate A | z-score, replicate B | z-score, replicate C |
| --- | --- | --- | --- | --- | --- |
| RGS2 (regulator of G protein signaling 2) | 1 | -0.42 | -0.59 | -0.24 | -0.43 |
| SPINK7 (serine peptidase inhibitor Kazal type 7) | 1 | 0.21 | 0.23 | 0.5 | -0.1 |
| AKAP5 (A-kinase anchoring protein 5) | 1 | -0.09 | -0.23 | -0.03 | 0 |
| CPE (carboxypeptidase E) | 1 | 0.15 | 0.23 | -0.01 | 0.22 |
| HSF4 (heat shock transcription factor 4) | 1 | -1 | -1.19 | -1.01 | -0.81 |
| LINC01060 (long independently transcribed non-coding RNA 1060) | 1 | 0.46 | 0.52 | 0.26 | 0.61 |
| MIMS1 (mitochondrial inner membrane structural 1) | 1 | 0.32 | 0.23 | 0.37 | 0.35 |
| DEFB104A (defensin beta 104A) | 1 | 0.51 | 0.36 | 0.55 | 0.63 |
| HDDC2 (HD domain containing 2) | 1 | -0.1 | -0.52 | 0.4 | -0.16 |
| GRIA4 (glutamate ionotropic receptor AMPA type subunit 4) | 1 | -0.96 | -0.98 | -0.86 | -1.04 |
| FAM13A (family with sequence similarity 13 member A) | 1 | -1.01 | -1.12 | -1.06 | -0.84 |
| FAM13A (family with sequence similarity 13 member A) | 2 | 1.3 | 1.54 | 0.72 | 1.65 |
| NRIP2 (nuclear receptor interacting protein 2) | 1 | 0.04 | 0.29 | -0.23 | 0.08 |
| ZNF688 (zinc finger protein 688) | 1 | 1.38 | 0.89 | 1.7 | 1.54 |
| MACROH2A2 (macroH2A.2 histone) | 1 | -1.4 | -1.49 | -1.38 | -1.33 |
| KCNQ1 (potassium voltage-gated channel subfamily Q member 1) | 1 | -0.87 | -0.89 | -0.74 | -0.98 |
| SLC35G1 | 1 | -0.52 | -0.64 | -0.5 | -0.43 |
| C5orf47 (chromosome 5 open reading frame 47) | 1 | 0.46 | 1.11 | 0.06 | 0.21 |
| REEP5 (receptor accessory protein 5) | 1 | 0.48 | 0.5 | 0.57 | 0.39 |
| ACP6 (acid phosphatase 6, lysophosphatidic) | 1 | -0.62 | -0.82 | -0.42 | -0.63 |
| OR7D4 (olfactory receptor family 7 subfamily D member 4) | 1 | 0.78 | 0.54 | 0.84 | 0.95 |
| ARHGAP44 (Rho GTPase activating protein 44) | 1 | 0.72 | 0.82 | 0.93 | 0.41 |
| TSC1 (TSC complex subunit 1) | 1 | -0.72 | -0.1 | -1.07 | -1 |
| TSHR (thyroid stimulating hormone receptor) | 1 | -0.4 | -0.96 | -0.03 | -0.22 |
| LOC402571 (retired record) | 1 | 0.79 | 1.02 | 0.8 | 0.55 |
| FOLH1 (folate hydrolase 1) | 1 | 0.47 | 0.47 | 0.48 | 0.45 |
| SNAPC3 (small nuclear RNA activating complex polypeptide 3) | 1 | 0.43 | 0.42 | -0.13 | 1 |
| PGPEP1 (pyroglutamyl-peptidase I) | 1 | 1.18 | 0.86 | 1.1 | 1.58 |
| DPP3 (dipeptidyl peptidase 3) | 1 | 0.24 | -0.01 | 0.48 | 0.25 |
| APOA4 (apolipoprotein A4) | 1 | 1.16 | 1.04 | 1.23 | 1.2 |
| AHSA2P (activator of HSP90 ATPase homolog 2, pseudogene) | 1 | 1.43 | 1.47 | 1.39 | 1.42 |
| HNRNPK (heterogeneous nuclear ribonucleoprotein K) | 1 | -2.55 | -2.53 | -2.66 | -2.47 |
| NKX3-2 (NK3 homeobox 2) | 1 | 1.36 | 1.1 | 1.13 | 1.85 |
| SLC22A2 | 1 | -0.22 | -0.04 | -0.36 | -0.25 |
| SALL1 (spalt like transcription factor 1) | 1 | -2.11 | -1.93 | -2.17 | -2.23 |
| TMEM158 (transmembrane protein 158) | 1 | 1.2 | 1.25 | 0.97 | 1.38 |
| GABRP (gamma-aminobutyric acid type A receptor subunit pi) | 1 | -0.09 | -0.08 | -0.11 | -0.08 |
| RAB39A (RAB39A, member RAS oncogene family) | 1 | 1.72 | 1.78 | 1.69 | 1.7 |
| RXFP1 (relaxin family peptide receptor 1) | 1 | 0.32 | 0.58 | 0.1 | 0.28 |
